A mixed list of measured activities; the numbers were collected in NIAID ChemDB.

Inhibition is in % at the dose shown (toxicity tests: loss of growth or viability).

| structure | kind | agent | strain or isolate | cells | protein | method | setting | read-out | tested at | value |
|---|---|---|---|---|---|---|---|---|---|---|
| O=[N+]([O-])c1cc(Cn2nnc(-c3cc([N+](=O)[O-])cc([N+](=O)[O-])c3)n2)cc([N+](=O)[O-])c1 | culture | Mycobacterium kansasii | 6509/96 | - | - | - | 14 d | MIC | - | 4 µM |
| O=c1ccn([C@H]2CC[C@@H](COP(=O)(O)F)O2)c(=O)[nH]1 | culture | HIV-1 | - | PBMC | - | p24 | - | EC50 | - | 100 µM |
| Cc1ccc([N+](=O)[O-])cc1NC(=O)NNc1c([N+](=O)[O-])cc(C(F)(F)F)cc1[N+](=O)[O-] | culture | Mycobacterium tuberculosis | H37Rv | - | - | BACTEC | - | MIC bound | - | ≤12.5 µg/mL |
| Nc1cc([As]=O)ccc1O | toxicity | - | - | MT-2 | - | - | - | CC50 | - | 0.42 µg/mL |
| NP1(N)=NP(Cl)(Cl)=NP(Cl)(Cl)=N1 | culture | Mycobacterium tuberculosis | H37Rv | - | - | BACTEC | - | MIC | - | ≥128 µg/mL |
| Cc1cn([C@H]2C[C@H](F)[C@@H](COP(=O)(O)C(F)Cl)O2)c(=O)[nH]c1=O | culture | HIV-1 | - | H9 | - | p24 | - | EC50 | - | 3.5 µM |
| O=[N+]([O-])c1ccc(S(=O)(=O)c2ccc([N+](=O)[O-])cc2[N+](=O)[O-])c([N+](=O)[O-])c1 | target | HIV-1 | - | - | Integrase | 3′ processing | - | IC50 | - | 60 µM |
| CCN(CC)P1OCC(C)O1 | culture | Mycobacterium tuberculosis | H37Rv | - | - | resazurin | - | MIC bound | - | >6.25 µg/mL |
| Cc1cn([C@H]2C[C@H](N=[N+]=[N-])[C@@H](COP(=O)(O)F)O2)c(=O)[nH]c1=O | culture | HIV-1 | IIIB | MT-4 | - | - | - | EC50 | - | 0.022 µM |
| N#Cc1c(SCCBr)nsc1-c1ccccc1 | culture | Herpes simplex virus 1 | F | VERO | - | plaque count | - | EC50 | - | >25 µg/mL |
| O=[N+]([O-])c1cccc2no[n+]([O-])c12 | culture | Mycobacterium tuberculosis | H37Rv | - | - | resazurin | - | inhibition | 6.25 µg/mL | 23% |
| Cc1cn([C@H]2C[C@H](F)[C@@H](COP(=O)(O)C#N)O2)c(=O)[nH]c1=O | culture | HIV-1 | SCV 4005 | MT-4 | - | antigen | - | EC50 | - | 0.15 µM |
| CC1=NO[C@@]2(CC[C@H](C)N3C[C@H]2n2cc(C(=O)NCc4ccc(F)cc4F)c(=O)c(OC(=O)N4CCOC[C@H]4COP(=O)(O)O)c2C3=O)C1 | toxicity | - | - | MT-4 | - | luminescence | - | CC50 | - | 50 µM |
| CCc1cn([C@H]2C[C@H](O)[C@@H](COP(=O)(O)F)S2)c(=O)[nH]c1=O | culture | Herpes simplex virus 1 | L2/R acyclovir-resistant | VERO | - | cytopathic effect | - | EC50 | - | 269 µM |
| CSP1(SC)=NP(Cl)(Cl)=NP(Cl)(Cl)=N1 | culture | Mycobacterium tuberculosis | H37Rv | - | - | BACTEC | - | MIC | - | 128 µg/mL |
| Cc1cn([C@H]2C[C@H](F)[C@@H](CO)O2)c(=O)[nH]c1=O | culture | HIV-1 | - | H9 | - | RT activity | - | EC50 | - | <0.1 µM |
| CNP1(Cl)=NP(Cl)(N(C)C)=NP(Cl)(N(C)C)=N1 | culture | Mycobacterium tuberculosis | H37Rv | - | - | BACTEC | - | MIC | - | ≥128 µg/mL |
| Cc1cn([C@H]2C=C[C@@H](CO)O2)c(=O)[nH]c1=O | culture | HIV-1 | - | PBMC | - | p24 | - | EC50 | - | 0.05 µM |
| Nc1ncnc2c1ncn2[C@H]1CC[C@@H](CO)O1 | culture | HIV-1 | - | MT-4 | - | p24 | - | EC50 | - | 5.04 µM |

Repeating the final 2 entries:

Cc1cn([C@H]2C=C[C@@H](CO)O2)c(=O)[nH]c1=O ; kind: culture ; agent: HIV-1 ; cells: PBMC ; method: p24 ; read-out: EC50 ; value: 0.05 µM
Nc1ncnc2c1ncn2[C@H]1CC[C@@H](CO)O1 ; kind: culture ; agent: HIV-1 ; cells: MT-4 ; method: p24 ; read-out: EC50 ; value: 5.04 µM

CCn is the concentration with n% toxicity to the cells. Neighbouring rows are from separate reports. Blank or dashed fields: not listed here. ICn: concentration for n% inhibition. ECn: concentration that inhibits the pathogen or its effect by n%. MIC bound: limit read from a one-dose screen.